Measured values published in publication PMC6151383 (Molecules : A Journal of Synthetic Chemistry and Natural …, 2017).

Key:
[1] = test system: Trichophyton interdigitale 445; experiment: Antifungal microdilution broth MIC, T. interdigitale; assay type: cell-based; details: SI = IC50 (HepG2)/MIC
[2] = test system: M. kansasii; experiment: M. kansasii, both strains taken together (SI and text ranges); assay type: cell-based, Mycobacterium kansasii; details: SI = IC50 (HepG2)/MIC, both strains of M. kansasii
[3] = test system: Mycobacterium tuberculosis 331/88 (H37Rv); experiment: In vitro antimycobacterial MIC, M. tuberculosis; assay type: cell-based; details: SI = IC50 (HepG2)/MIC
[4] = test system: Candida sp.; experiment: Selectivity index for Candida sp. (IC50 HepG2/MIC); assay type: cell-based; details: all Candida species

Row | SMILES | SI for TI [1] | SI for M. kansasii [2] | SI for Mtb. [3] | SI for Candida sp. [4]
1 | O=S(=O)(Nc1ncccn1)c1ccc(N=Cc2ccccc2O)cc1 [Compound 2a, 4-[(2-Hydroxybenzylidene)amino]-N-(pyrimidin-2-yl)benzenesulfonamide] | >4 | > 15.63 | > 15.63 | 
2 | O=S(=O)(Nc1ncccn1)c1ccc(N=Cc2cc(F)ccc2O)cc1 [Compound 2b, 4-[(5-Fluoro-2-hydroxybenzylidene)amino]-N-(pyrimidin-2-yl)benzenesulfonamide] |  | >1 | >2 | 
3 | O=S(=O)(Nc1ncccn1)c1ccc(N=Cc2cc(Br)ccc2O)cc1 [Compound 2d, 4-[(5-Bromo-2-hydroxybenzylidene)amino]-N-(pyrimidin-2-yl)benzenesulfonamide] | 2.55 | 2.55–4.97 | 4.98–9.94 | 0.64–2.55
4 | O=S(=O)(Nc1ncccn1)c1ccc(N=Cc2cc(I)ccc2O)cc1 [Compound 2e, 4-[(2-Hydroxy-5-iodobenzylidene)amino]-N-(pyrimidin-2-yl)benzenesulfonamide] | 4.99 | 1.25–4.88 | 1.25–2.50 | 1.25–2.50
5 | O=[N+]([O-])c1ccc(O)c(C=Nc2ccc(S(=O)(=O)Nc3ncccn3)cc2)c1 [Compound 2f, 4-[(2-Hydroxy-5-nitrobenzylidene)amino]-N-(pyrimidin-2-yl)benzenesulfonamide] | 2.25 | 0.28–1.12 | 0.56 | ≤0.56
6 | Cc1ccc(O)c(C=Nc2ccc(S(=O)(=O)Nc3ncccn3)cc2)c1 [Compound 2g, 4-[(2-Hydroxy-5-methylbenzylidene)amino]-N-(pyrimidin-2-yl)benzenesulfonamide] |  | 2.28–9.11 | 4.56 | 
7 | COc1ccc(O)c(C=Nc2ccc(S(=O)(=O)Nc3ncccn3)cc2)c1 [Compound 2h, 4-[(2-Hydroxy-5-methoxybenzylidene)amino]-N-(pyrimidin-2-yl)benzenesulfonamide] | 5.62 | 5.62–21.94 |  | ≤0.70
8 | O=S(=O)(Nc1ncccn1)c1ccc(N=Cc2cc(O)ccc2O)cc1 [Compound 2i, 4-[(2,5-Dihydroxybenzylidene)amino]-N-(pyrimidin-2-yl)benzenesulfonamide] | > 256.41 | >4 | >4 | > 16
9 | CC(C)(C)c1ccc(O)c(C=Nc2ccc(S(=O)(=O)Nc3ncccn3)cc2)c1 [Compound 2j, 4-{[5-(Tert-butyl)-2-hydroxybenzylidene]amino}-N-(pyrimidin-2-yl)benzenesulfonamide] | 0.73 | 0.73–2.85 | 0.73–1.46 | 
10 | O=S(=O)(Nc1ncccn1)c1ccc(N=Cc2c(O)cccc2Cl)cc1 [Compound 2k, 4-[(2-Chloro-6-hydroxybenzylidene)amino]-N-(pyrimidin-2-yl)benzenesulfonamide] |  | 0.41–1.64 | 0.82 | 
11 | O=S(=O)(Nc1ncccn1)c1ccc(N=Cc2cccc(Cl)c2O)cc1 [Compound 2l, 4-[(3-Chloro-2-hydroxybenzylidene)amino]-N-(pyrimidin-2-yl)benzenesulfonamide] | 5.14 | 2.57–10.03 | 2.57–5.14 | 0.64–2.57
12 | O=S(=O)(Nc1ncccn1)c1ccc(N=Cc2cc(Cl)cc(Cl)c2O)cc1 [Compound 2m, 4-[(3,5-Dichloro-2-hydroxybenzylidene)amino]-N-(pyrimidin-2-yl)benzenesulfonamide] | 0.91 | 0.23–1.83 | 0.91 | 0.91–3.66
13 | O=S(=O)(Nc1ncccn1)c1ccc(N=Cc2cc(Cl)cc(Br)c2O)cc1 [Compound 2n, 4-[(3-Bromo-5-chloro-2-hydroxybenzylidene)amino]-N-(pyrimidin-2-yl)benzenesulfonamide] | 1.49 | 0.37–1.49 | 0.74 | 1.49–2.97
14 | O=S(=O)(Nc1ncccn1)c1ccc(N=Cc2cc(Cl)cc(I)c2O)cc1 [Compound 2o, 4-[(5-Chloro-2-hydroxy-3-iodobenzylidene)amino]-N-(pyrimidin-2-yl)benzenesulfonamide] | 30.37 | 0.24–0.95 | 0.47 | 7.58
15 | O=S(=O)(Nc1ncccn1)c1ccc(N=Cc2cc(I)cc(I)c2O)cc1 [Compound 2p, 4-[(2-Hydroxy-3,5-diiodobenzylidene)amino]-N-(pyrimidin-2-yl)benzenesulfonamide] | 2.43 | 0.15–0.61 | 0.15 | 4.87–9.73
16 | O=[N+]([O-])c1ccc(C=Nc2ccc(S(=O)(=O)Nc3ncccn3)cc2)o1 [Compound 2q, 4-{[(5-Nitrofuran-2-yl)methylene]amino}-N-(pyrimidin-2-yl)benzenesulfonamide] | 0.07 | 0.07–0.26 | 0.13 | 0.07
17 | Nc1ccc(S(=O)(=O)Nc2ncccn2)cc1 [SDZ 1, sulfadiazine, reference compound] |  | >46.88 | >24 | 
